Human monoclonal antibodies against the spike receptor-binding domain (heavy:light variable regions). IC50 against pseudoviruses bearing the spike of naturally observed variants; lower = stronger; >10 µg/ml means not reached at the top dose. No active / inactive call. The stated detection limit is 0.0005 µg/ml; values near or below 0.001 µg/ml lie at the floor of the assay.
B1: BD56-210 (protein)
chain 1: VQLVQSGAEVKKPGASVKISCKASGYTFSNSYLHWVRQAPGQGLEWMGVINPSAGSTTYARMFQGRVTMTSDTSTSTIYMELSSLRFEDTAVYYCARDLNYIPSFSWFDTWGQGTLVTVSS
chain 2: EIVLTQSPATLSLSPGERATLSCRASQSVSSYVAWYQQKPGQAPRLLIYDASNRATGIPARFSGSGSGTDFTLTISGLEPEDFAVYYCQHRSNWLMYTFGQGTKLEIK
B2: BD56-211 (protein)
chain 1: QVQLVESGGGVVQPERSLRLSCAASGFTFSKYAMHWVRQAPGKGLEWVAVIWYDGSNEYYGDSVKGRFTISRDNSKNTLYLQMNSLRAEDTAVYYCAKSGYSYASEDYYFDYWGQGTLVTVSS
chain 2: DIQMTQSPSSLSASVGDRVTITCQASQDISNHLHWYQHKPGKAPKLLIYDASNLETGVPSRFSGSGSGTDFTITISSLQPEDIATYYCQQYVNLPLTFGGGTKVEIK
B3: BD56-213 (protein)
chain 1: EVQLVQSGAEVKKPGESLKISCKGFGYSFISYWTAWVRQRPGKGLEWMGIIYPGDSDTRYSPSFQGQVTISADKSISTAYLQWSSLEASDTAMYYCVRYTSVPNGWFDPWGQGTLVTVSS
chain 2: QSVLTQPPSASGTPGQRVTISCSGSSSNIGTNTVNWYQHLPGTAPKLLIYNNNQRPSGVPDRFSGSKSGTSASLAISGLQSEDEADYYCAAWDDSLSGVFGGGTKLTVL
B4: DH1154 (protein)
chain 1: EVQLVESGGGLIQPGGSLRLSCAASGFTVSSNYMSWVRQAPGKGLEWVSVIYSGGSTFYADSVKGRFTISRDNSKNTLYLQMNSLGAEDTAVYYCARDLGSRGAFDIWGQGTMVTVSS
chain 2: DIQLTQSPSFLSASVGDRVTITCRASQGISSYLAWYQQKPGKAPKLLIYAASTLQSGVPSRFSGSGSGTEFTLTISSLQPEDFATYYCQQLNSDPVPFGGGTKVEIK
B5: BD56-215 (protein)
chain 1: QVQLVQSGAEVKKPGASVKVSCKASGYTFTSYYMHWVRQAPGQGLEWMGVINPSGGSTRYAQNFLGRVIMTRDTSTSTVYMELSSLRSEDTAMYYCARPNGSPDDYFDYWGLGTLVTVSS
chain 2: SYVLTQPPSVSVAPGKTARITCGGNNIGSKSVHWYQQKPGQAPVLVIYYDSDRPSGIPERFSGSNSGNTATLTISRVEAGDEADYYCQVWDSSSLYVFGTGTRVTVL
B6: BD56-216 (protein)
chain 1: QVQLVESEGGVVQPGRSLRLSCAASGFSFSIYAMHWVRQAPDKGLEWVAVISYDGSNKYYADSAKGRFTISRDNSKNTLFLQMNSLRAEDTAVYYCARDSQTLAAALVNSGFDYWGQGTLVTVSS
chain 2: SYVLTQPPSVSVAPGKTARITCGGNSIGSKNVHWYQQKPGQAPVLVIYYDSDRPAGIPERFSGSNSGNTATLTISRVEAGDEADYYCQVWDRGVEFGGGTKLTVL
B7: BD56-220 (protein)
chain 1: EVQLVESGGGLVKPGGSLRLSCAASGFTFSGYSMDWVRQAPGKGLEWVSSISGISNHIYYADSVKGRFTISRDNAKNSMYLQMNSLRTEDTAIYYCARDAGTARVEANSYYGMDVWGQGTTVTVSS
chain 2: SYVLTQPPSVSVTPGQTARITCGGDGIGGKSVHWYQQKPGQAPVLVIYYDRDRPSGIPERFSGSNSGITATLTISRVEAGDEADYYCQVWDSSSHHWVFGGGTKLTVL

What follows are binders tested against SARS-CoV-2 Omicron BA.1 spike pseudovirus (assay: pseudovirus neutralization IC50; higher = weaker neutralization).
Experimental: (§1)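 Single-round VSV luciferase pseudovirus mixed with antibody dilutions for 1 h and put on Huh-7 cells for about a day; IC50 from the dose curve.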

Binder | pseudovirus neutralization IC50
B1 | > 10 µg/mL
B2 | > 10 µg/mL
B3 | 0.776 µg/mL
B4 | > 10 µg/mL
B5 | > 10 µg/mL
B6 | > 10 µg/mL
B7 | 1.37 µg/mL

The binders below were run against SARS-CoV-2 Omicron BA.2 spike pseudovirus in the same assay as above.
Experimental: as §1

Binder | pseudovirus neutralization IC50
B1 | > 10 µg/mL
B2 | > 10 µg/mL
B3 | 1.12 µg/mL
B4 | > 10 µg/mL
B5 | > 10 µg/mL
B6 | > 10 µg/mL
B7 | 2.8 µg/mL

Each binder was assayed against SARS-CoV-2 Omicron BA.2.75 spike pseudovirus in the same assay as above.
Experimental: as §1

Binder | pseudovirus neutralization IC50
B1 | > 10 µg/mL
B2 | > 10 µg/mL
B3 | 0.948 µg/mL
B4 | > 10 µg/mL
B5 | > 10 µg/mL
B6 | > 10 µg/mL
B7 | 5.19 µg/mL

What follows are binders tested against SARS-CoV-2 Omicron BA.5 spike pseudovirus in the same assay as above.
Experimental: as §1

Binder | pseudovirus neutralization IC50
B1 | > 10 µg/mL
B2 | > 10 µg/mL
B3 | 0.8 µg/mL
B4 | > 10 µg/mL
B5 | > 10 µg/mL
B6 | > 10 µg/mL
B7 | 2.5 µg/mL

The binders below were run against SARS-CoV-2 Omicron BQ.1.1 spike pseudovirus in the same assay as above.
Experimental: as §1

Binder | pseudovirus neutralization IC50
B1 | > 10 µg/mL
B2 | > 10 µg/mL
B3 | 0.637 µg/mL
B4 | > 10 µg/mL
B5 | > 10 µg/mL
B6 | > 10 µg/mL
B7 | 4.71 µg/mL

The binders below were run against SARS-CoV-2 Omicron XBB spike pseudovirus in the same assay as above.
Experimental: as §1

Binder | pseudovirus neutralization IC50
B1 | > 10 µg/mL
B2 | > 10 µg/mL
B3 | 1.69 µg/mL
B4 | > 10 µg/mL
B5 | > 10 µg/mL
B6 | > 10 µg/mL
B7 | 5.2 µg/mL

What follows are binders tested against SARS-CoV-2 early D614G spike pseudovirus in the same assay as above.
Experimental: as §1

Binder | pseudovirus neutralization IC50
B1 | 8.33 µg/mL
B2 | > 10 µg/mL
B3 | 1.56 µg/mL
B4 | 0.0847 µg/mL
B5 | 5.93 µg/mL
B6 | > 10 µg/mL
B7 | 4.91 µg/mL
